Source: PubChem BioAssay AID624099 (ICCB-Longwood, 2012)

- Aim: 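Human genes that papillomavirus E2 requires to repress the HPV18 LCR promoter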 (primary screen)
- Cell system: human C33A cervical carcinoma cells (HPV-negative) stably expressing BPV1 E2 and an HPV18 LCR luciferase reporter
- Reagents: siRNA pool against human genes, 40 nM
- Duration: 72 h
- Measurement: 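HPV18 LCR reporter light per well, converted to plate-wise z-scores that exclude control wells, and averaged over triplicate plates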
- Reading the numbers: mean z-score and z-score: higher = stronger reporter signal, weaker E2 silencing
- Active means: 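Mean z ≥ 2 together with z ≥ 2 in two or more of the three replicates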
In all, the deposit lists about 21,000 reagents; this is an unselected part. 497 of all reagents (2.4%) count as active. 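Higher z means weaker E2 silencing; only reporter increases were scored, and knock-downs that hurt cell survival may mask genuine repressor factors.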 The numbers tell different reagents against one gene apart.

no.	gene symbol	pool no.	mean z-score	z-score, replicate A	z-score, replicate B	z-score, replicate C	Call
1	LOC729995 (retired record)	1	0.31	0.46	0.12	0.34	inactive
2	DDX52 (DExD-box helicase 52)	1	0.59	0.77	0.41	0.6	inactive
3	ANKMY1 (ankyrin repeat and MYND domain containing 1)	1	-0.71	-0.66	-0.95	-0.51	inactive
4	DHRS11 (dehydrogenase/reductase 11)	1	-0.74	-1.3	-0.6	-0.33	inactive
5	KLB (klotho beta)	1	-0.18	-0.34	-0.24	0.05	inactive
6	OR11H6 (olfactory receptor family 11 subfamily H member 6)	1	-1.69	-1.58	-1.3	-2.2	inactive
7	CSNK1E (casein kinase 1 epsilon)	1	-0.3	-0.28	-0.61	0	inactive
8	ETAA1 (ETAA1 activator of ATR kinase)	1	1.87	1.72	2.22	1.67	inactive
9	TOP1 (DNA topoisomerase I)	1	1.8	1.29	1.83	2.3	inactive
10	GATM (glycine amidinotransferase)	1	1.55	1.93	1.49	1.22	inactive
11	SMARCC2 (SWI/SNF related BAF chromatin remodeling complex subunit C2)	1	-0.02	-0.67	0.2	0.42	inactive
12	DNAJA1 (DnaJ heat shock protein family (Hsp40) member A1)	1	0.37	0.7	0.3	0.13	inactive
13	HOXB5 (homeobox B5)	1	1.96	2.13	1.87	1.87	inactive
14	NOPCHAP1 (NOP protein chaperone 1)	1	0.45	0.17	0.72	0.45	inactive
15	LOC392222 (retired record)	1	0.21	0.12	0.44	0.09	inactive
16	GOPC (golgi associated PDZ and coiled-coil motif containing)	1	-0.24	-0.51	-0.07	-0.14	inactive
17	CLK3 (CDC like kinase 3)	1	0.49	-0.25	1.2	0.53	inactive
18	ASPNAT (aspartate N-acetyltransferase)	1	-2.61	-2.48	-2.49	-2.87	inactive
19	AMFR (autocrine motility factor receptor)	1	-0.99	-0.85	-1.31	-0.82	inactive
20	CUL2 (cullin 2)	1	-2.01	-1.99	-2	-2.03	inactive
21	ABCA2 (ATP binding cassette subfamily A member 2)	1	-1.32	-1.34	-1.59	-1.01	inactive
22	HSPB1 (heat shock protein family B (small) member 1)	1	3.52	3.81	3.36	3.4	active
23	CERCAM (cerebral endothelial cell adhesion molecule)	1	0.77	0.8	0.74	0.79	inactive
24	MFSD2A (MFSD2 lysolipid transporter A, lysophospholipid)	1	-1.24	-1.29	-1.14	-1.28	inactive
25	BRCA1 (BRCA1 DNA repair associated)	1	-0.6	-0.52	-0.55	-0.74	inactive

Records above whose target name starts with G or g (2):
gene symbol	pool no.	mean z-score	z-score, replicate A	z-score, replicate B	z-score, replicate C	Call
GATM (glycine amidinotransferase)	1	1.55	1.93	1.49	1.22	inactive
GOPC (golgi associated PDZ and coiled-coil motif containing)	1	-0.24	-0.51	-0.07	-0.14	inactive

Next entries:
no.	gene symbol	pool no.	mean z-score	z-score, replicate A	z-score, replicate B	z-score, replicate C	Call
26	CCDC85C (coiled-coil domain containing 85C)	1	1.88	1.75	2.13	1.77	inactive
27	CCDC85C (coiled-coil domain containing 85C)	2	0.44	0.72	0.51	0.1	inactive
28	NCOA6 (nuclear receptor coactivator 6)	1	0.35	0.32	0.37	0.35	inactive
29	XKR6 (XK related 6)	1	1.1	1.42	0.94	0.93	inactive
30	XKR6 (XK related 6)	2	-0.62	-0.58	-0.7	-0.57	inactive
31	ZNF521 (zinc finger protein 521)	1	0.59	0.67	0.52	0.57	inactive
32	LOC388952 (retired record)	1	0.02	-0.2	0.09	0.18	inactive
33	SHF (Src homology 2 domain containing F)	1	0.15	0.22	0.3	-0.08	inactive
34	CC2D1B (coiled-coil and C2 domain containing 1B)	1	-0.78	-0.49	-1.04	-0.8	inactive
35	PLD6 (phospholipase D family member 6)	1	-1.35	-1.4	-1.31	-1.35	inactive
36	CFAP77 (cilia and flagella associated protein 77)	1	1.27	1.28	1.48	1.05	inactive
37	LOC399707 (retired record)	1	-1.05	-1.06	-1.16	-0.93	inactive
38	PSMD3 (proteasome 26S subunit, non-ATPase 3)	1	-1.15	-1.35	-1.19	-0.91	inactive
39	NEO1 (neogenin 1)	1	0.25	0.49	0.45	-0.18	inactive
